# Results: paper PMC4560900, “High-throughput screening against thioredoxin glutathione reductase identifies novel inhibitors with potential therapeutic value for schistosomiasis” (Infectious Diseases of Poverty, 2015)
# Sequences of proteins named here, by UniProt entry; tags and fusion partners are left off. Residues count along the entry.
# UniProt Q962Y6, 1-598: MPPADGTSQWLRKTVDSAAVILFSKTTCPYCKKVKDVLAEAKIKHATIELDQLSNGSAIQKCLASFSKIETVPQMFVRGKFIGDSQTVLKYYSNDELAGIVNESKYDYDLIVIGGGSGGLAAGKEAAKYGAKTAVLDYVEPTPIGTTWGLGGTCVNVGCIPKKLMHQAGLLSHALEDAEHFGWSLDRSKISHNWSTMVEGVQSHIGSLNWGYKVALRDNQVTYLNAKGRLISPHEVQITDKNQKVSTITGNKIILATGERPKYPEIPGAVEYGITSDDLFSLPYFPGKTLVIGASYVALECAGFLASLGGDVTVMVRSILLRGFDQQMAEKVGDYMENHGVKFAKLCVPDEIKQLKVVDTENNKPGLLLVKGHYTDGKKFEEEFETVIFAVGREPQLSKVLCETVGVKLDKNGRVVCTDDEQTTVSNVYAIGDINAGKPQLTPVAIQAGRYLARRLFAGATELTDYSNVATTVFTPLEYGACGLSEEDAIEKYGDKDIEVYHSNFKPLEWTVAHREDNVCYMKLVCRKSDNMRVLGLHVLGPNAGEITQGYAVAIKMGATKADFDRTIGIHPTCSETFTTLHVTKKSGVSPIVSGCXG
# How the values were obtained:
# [1] = system: larval worms (schistosomula); experiment: Ex vivo cidal activity against cultured larval parasites (schistosomula); settings: tested at 50, 25, 12.5, 6.25 and 3.125 μM, n.a. = no activity
# [2] = system: adult worms; experiment: Ex vivo cidal activity against adult worms; settings: tested at 10 and 5 μM, n.a. = no activity
# [3] = biological target: Thioredoxin glutathione reductase from S. mansoni (SmTGR) (Schistosoma mansoni, UniProt Q962Y6); experiment: Endpoint SmTGR fluorescence (ThioGlo) assay; assay type: biochemical; settings: inhibition of SmTGR; for Efficacy (%): 30 μM naphthazarin defined as 100 % inhibition, means ± SEM; for IC50: means ± SEM of at least three independent experiments
Compound,Larva: lowest concentration resulting in 100 % larval death at 48 hours [1] [µM],Adult: lowest concentration resulting in 100 % worm death on day seven [2] [µM],Efficacy (%) [3] [%],IC50 [3] [µM]
O=[N+]([O-])c1ccc2c(c1)S(=O)(=O)C=C2,3.125,10,98.09 ± 1.56,–
Cc1ccc(C(=O)/C=C/S(=O)(=O)c2cc(Cl)ccc2Cl)cc1,25,–,98.35 ± 1.32,0.612
Cc1ccc(NC(=O)C2=C(c3ccccc3)S(=O)(=O)CCS2(=O)=O)cc1,25,–,93.88 ± 0.17,2.21
CC12C=CC(C)(O1)C1C(=O)N(c3ccc(Br)cc3)C(=O)C12 (stereo not shown),50,–,98.57 ± 1.36,0.424
Cc1c(I)sc2[nH]c(=O)c(=O)[nH]c12,50,–,95.89 ± 4.91,0.004
O=c1c(Cl)c(-n2cc(CO)nn2)cnn1-c1ccccc1,3.125,10,78.85 ± 2.35,6.3
COc1ccc(CN2C(=O)C=CC2=O)cc1,25,–,98.48 ± 1.48,1.45
Cc1nn(-c2ccccc2)c(O)c1C=NNc1ccccc1,50,–,98.46 ± 1.61,2.12
CCC1COCCN1CCC(=O)c1ccc(N)cc1 (stereo not shown),12.5,–,96.60 ± 0.67,18.2
Oc1c(Cl)c(Cl)c2c(c1Cl)CC(O)O2 (stereo not shown),50,–,98.70 ± 1.63,2.61
Cc1nsc(N)c1[N+](=O)[O-],50,–,96.77 ± 0.49,28.6
O=[N+]([O-])c1cc2c(cc1Cl)no[n+]2[O-],12.5,–,94.88 ± 1.48,13.1
Cc1c(Br)c([N+](=O)[O-])c(C(=O)O)c([N+](=O)[O-])c1Br,25,–,91.03 ± 0.45,3.26
O=C(/C=C/Sc1nc[nH]n1)c1ccc(Cl)cc1,3.125,–,82.93 ± 1.20,7.66
O=C1C(Cl)=C(Nc2cccc(O)c2)C(=O)c2ccccc21,6.25,–,73.26 ± 1.61,2.6
